{
  "sequences": {"note": "By UniProt entry, the sequences of proteins in these tests, tags left out.", "UniProt P06730, whole entry K119A": "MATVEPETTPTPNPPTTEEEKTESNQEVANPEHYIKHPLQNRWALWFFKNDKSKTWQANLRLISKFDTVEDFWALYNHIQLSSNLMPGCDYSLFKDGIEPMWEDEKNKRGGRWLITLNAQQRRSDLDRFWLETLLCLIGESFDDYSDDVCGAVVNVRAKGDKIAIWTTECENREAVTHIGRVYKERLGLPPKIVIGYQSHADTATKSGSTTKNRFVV"},
  "source": "paper PMC8863163",
  "about": "(Research Square, 2022)",
  "target": "GST-eIF4E K119A (UniProt P06730)",
  "assay": "GST pull-down, scintillation counting",
  "details": "5' cap-0 7MeGppp on A1; recombinant protein; protein details: N-terminal GST; label: 32P in cap (from [alpha-32P]GDP)",
  "note": "Construct, isoform or probe ends are uncertain for at least one entry.",
  "data": [
    {"sequence": "AUUAAAGGUU [[32P]7MeGpppA-RNALS10 (made with SARS-CoV-2 nsps)]", "values": [
      {"measurement": "binding result", "result": "binds"}
    ]}
  ]
}
